For orientation: inhibition means the drop in the measured response relative to a control, in per cent.

Molecules are shown by their SMILES. The list shows a part of the results, in another mix than the full data. Activity calls are given as the source filed them. Cut-off read from the data, not from the text of the source: active = inhibition above about 30%; inactive = the rest.

The test system of this assay is Crimean-Congo hemorrhagic fever virus L polyprotein viral ovarian tumor (vOTU) protease domain. Put plainly: CCHFV vOTU protease inhibitors, primary screen, biochemical, Pep-AMC substrate, fluorescence (AID 651958). Note: 0% = vehicle wells with enzyme and 100% = no enzyme wells. The settings on record: at 11.5 µM, stronger effect = higher value.
As to `O=C(NCC1(N2CCCCC2)CCCCC1)c1cccs1`, the inhibition was inactive: -7.47%.
As to `CCCCn1nnnc1C(CC)N1CCC(n2c(=O)[nH]c3ccccc32)CC1` (stereo unspecified), the inhibition was inactive: 6.28%.
With `CCCCn1nnnc1C(c1cccs1)N1CCC(n2c(=O)[nH]c3ccccc32)CC1` (stereo unspecified) the figure was inactive: 1.76%; with `O=C(NCC1(N2CCCCC2)CCCCC1)c1ccc(=O)[nH]c1`, inactive: 7.5%.
Consider `CC(C)(C)OC(=O)N1CCC(N(C(=O)c2ccccc2)c2ccc(F)cc2)CC1`, for which the inhibition is inactive: 1.97%.
As for `COc1ccc(C(=O)NCC2(N3CCCCC3)CCCCC2)c(OC)c1OC`, the figure is inactive: 2.01%; as for `CCC(c1nnnn1C1CCCC1)N1CCC(n2c(=O)[nH]c3ccccc32)CC1` (stereo unspecified), inactive: 1.25%.
Consider `COc1ccc(C(=O)NCC2(N3CCCCC3)CCCCC2)cc1`, for which the inhibition is inactive: 4.14%.
As for `Cc1cccc(NC2(C#N)CCN(Cc3ccccc3)CC2)c1`, the inhibition is inactive: 25.5%.
As for `CSc1ccccc1C(=O)NCC1(N2CCCCC2)CCCCC1`, the figure is inactive: 5.06%; as for `O=C(NCC1(N2CCOCC2)CCCCC1)c1cc2ccccc2o1`, inactive: -2.16%; as for `Cc1cc(C)cc(N(C(=O)c2ccccc2)C2CCN(C(=O)OC(C)(C)C)CC2)c1`, inactive: 14.2%.
Take `O=C(NCC1(N2CCCCC2)CCCCC1)c1ccc(Cl)nc1`: the inhibition is inactive: 13.8%.
Take `O=c1[nH]c2ccccc2n1C1CCN(C(c2ccccc2OC(F)(F)F)c2nnnn2C2CCCCC2)CC1` (stereo unspecified): the inhibition is inactive: -3.98%.
With `CCCCn1nnnc1C(c1ccc(OC)cc1)N1CCC(n2c(=O)[nH]c3ccccc32)CC1` (stereo unspecified) the figure was inactive: 3.12%.
As for `CCOC(=O)N1CCC(Nc2ccc(OC)cc2)CC1`, the figure is inactive: -10.6%; as for `COc1ccc(Cl)cc1C(=O)NCC1(N2CCOCC2)CCCCC1`, inactive: -3.96%.
As for `N#CC1(Nc2ccccc2)CCN(Cc2ccccc2)CC1`, the figure is inactive: -18%; as for `O=C(NCC1(N2CCCCC2)CCCCC1)c1ccc(Cl)s1`, inactive: 4.09%; as for `O=C(OC1CN2CCC1CC2)C1c2ccccc2Oc2ccccc21` (stereo unspecified), inactive: 4.19%.
With `O=c1[nH]c2ccccc2n1C1CCN(C(c2cc3ccccc3o2)c2nnnn2C2CCCCC2)CC1` (stereo unspecified), the inhibition is inactive: 11.3%.
As to `CCOc1ccc(C)cc1CN(CCCl)CCCl`, the inhibition is inactive: -1.99%.
As to `O=C1CCN(Cc2ccccc2)CC1`, the inhibition is inactive: -0.39%.
As for `CC(C)(C)n1nnnc1C(c1ccccc1)N1CCC(n2c(=O)[nH]c3ccccc32)CC1` (stereo unspecified), the figure is inactive: -10.6%; as for `COc1ccc(NC2CCN(CCc3ccccc3)CC2)c(OC)c1`, inactive: -20.6%.
`CCOC(=O)N1CCC(Nc2ccc(F)cc2)CC1`: the inhibition is inactive: 3.52%.
As for `O=P1(N(CCCl)CCCl)SCCCS1`, the figure is inactive: 0.58%; as for `CCCCn1nnnc1C(c1cc2ccccc2o1)N1CCC(n2c(=O)[nH]c3ccccc32)CC1` (stereo unspecified), inactive: 2.17%.
Take `CCCCOc1ccc(C(=O)NCC2(N3CCOCC3)CCCCC2)cc1`: the inhibition is inactive: 7.27%.
On to `O=C(NCC1(N2CCCCC2)CCCCC1)c1ccc(F)cc1`, for which the inhibition was inactive: 11.9%.
With `O=c1[nH]c2ccccc2n1C1CCN(C(c2ccccc2)c2nnnn2C2CCCCC2)CC1` (stereo unspecified), the inhibition was inactive: 11.1%.
With `O=c1[nH]c2ccccc2n1C1CCN(C(c2cccc3ccccc23)c2nnnn2C2CCCC2)CC1` (stereo unspecified) the figure was inactive: 0.83%.
Take `CCOC(=O)N1CCC(Nc2cccc(C)c2)CC1`: the inhibition is inactive: 14.5%.
With `COc1cc(C(=O)NCC2(N(C)C)CCCCC2)ccc1OC(F)F` the figure was inactive: 26.5%.
As for `O=C(NCC1(N2CCCCC2)CCCCC1)c1ccc(OC(F)F)cc1`, the figure is inactive: -2.61%.
In the case of `CC(C)(C)n1nnnc1C(c1ccccc1OC(F)(F)F)N1CCC(n2c(=O)[nH]c3ccccc32)CC1` (stereo unspecified), the inhibition was inactive: 22.2%.
As for `CSc1ccc(C(=O)NCC2(N3CCOCC3)CCCCC2)cc1`, the figure is inactive: 7.69%; as for `O=C(NCC1(N2CCCCC2)CCCCC1)c1cccc([N+](=O)[O-])c1`, inactive: -5.6%.
As to `O=c1[nH]c2ccccc2n1C1CCN(C(c2ccccc2OC(F)(F)F)c2nnnn2C2CCCC2)CC1` (stereo unspecified), the inhibition was inactive: 5.33%.
For `N#CC1(Nc2ccccc2)CCN(CCc2ccccc2)CC1`, the inhibition was inactive: -1.6%.
With `CCN1CCC(Nc2ccc(Cl)cc2)CC1` the figure was inactive: 7.15%; with `O=C(NCC1(N2CCCCC2)CCCCC1)c1cccc(C(F)(F)F)c1`, inactive: -15.9%.
Consider `CN1CCN(CCOC(=O)C(O)(c2ccccc2)c2ccccc2)CC1`, for which the inhibition was inactive: -0.16%.
As to `CC(C)c1ccc(C(=O)NCC2(N3CCOCC3)CCCCC2)cc1`, the inhibition was inactive: 15.5%.
`COc1ccc(NC2CCN(C(=O)OC(C)(C)C)CC2)cc1`: the inhibition was inactive: 22.1%.
As for `CCCCn1nnnc1C(c1cccc2ccccc12)N1CCC(n2c(=O)[nH]c3ccccc32)CC1` (stereo unspecified), the inhibition was inactive: 13.8%.
For the molecule `COc1cc(C(=O)NCC2(N3CCCCC3)CCCCC2)ccc1OC(F)F`, the inhibition was inactive: 4.95%.
As for `O=C(NCC1(N2CCOCC2)CCCCC1)c1cc(=O)[nH]c2ccccc12`, the figure is inactive: -2.29%.
Turning to `CN(C)c1cccc(C(=O)NCC2(N3CCCCC3)CCCCC2)c1`, the inhibition was inactive: -14.4%.
`COc1ccc(CN(CCCl)CCCl)cc1Cl`: the inhibition is inactive: -4.32%.
For the molecule `COC(=O)C1(Nc2ccccc2)CCN(Cc2ccccc2)CC1`, the inhibition is inactive: -6.23%.
As for `CC(C)c1ccc(NC2CCN(C(=O)OC(C)(C)C)CC2)cc1`, the figure is inactive: -2.54%.
With `CCCCn1nnnc1C(c1ccnc2ccccc12)N1CCC(n2c(=O)[nH]c3ccccc32)CC1` (stereo unspecified) the figure was inactive: 7.12%; with `CCC(c1nnnn1C(C)(C)C)N1CCC(n2c(=O)[nH]c3ccccc32)CC1` (stereo unspecified), inactive: 1.06%.
As for `O=C(NCC1(N2CCOCC2)CCCCC1)c1cc(F)c(F)cc1Cl`, the inhibition is inactive: -3.35%.
Take `COc1cc(OC)c(C(=O)NCC2(N(C)C)CCCCC2)cc1OC`: the inhibition is inactive: -2.38%.
Regarding `CN1CCC(Nc2cccc(F)c2)CC1`, the inhibition is inactive: -8.06%.
Take `O=C(NCC1(N2CCCCC2)CCCCC1)c1cncc(Br)c1`: the inhibition is inactive: -3.47%.
With `CCCOc1ccc(C(=O)NCC2(N(C)C)CCCCC2)cc1OC` the figure was inactive: -13.2%; with `Cc1ccc(C(=O)NCC2(N(C)C)CCCCC2)o1`, inactive: 15.9%.
As for `COc1ccc(C(c2nnnn2C2CCCC2)N2CCC(n3c(=O)[nH]c4ccccc43)CC2)cc1` (stereo unspecified), the figure is inactive: 5.08%.

The values above are taken from PubChem BioAssay AID651958 (The Scripps Research Institute Molecular Screening Center, 2012).
